Assay results published in ChEMBL document CHEMBL1150695, “The synthesis of SO-3, a conopeptide with high analgesic activity derived from Conus striatus” (2003).

Test system: Mus musculus
Experiment: Toxicity in intracerebrally dosed mouse
Details: in vivo, other

CC[C@H](C)[C@@H]1NC(=O)[C@H](CCCNC(=N)N)NC(=O)[C@H](CO)NC(=O)[C@@H]2CSSC[C@@H]3NC(=O)[C@H](CO)NC(=O)CNC(=O)[C@H]([C@H](C)O)NC(=O)[C@H](CSSC[C@H](N)C(=O)N[C@@H](CCCCN)C(=O)N[C@@H](C)C(=O)N[C@@H](C)C(=O)NCC(=O)N[C@@H](CCCCN)C(=O)N4CCC[C@H]4C(=O)N2)NC(=O)[C@H](CSSC[C@@H](C(N)=O)NC(=O)[C@H](CCCCN)NC(=O)CNC(=O)[C@H](CO)NC(=O)[C@H](CCCNC(=N)N)NC3=O)NC(=O)[C@H](CC(N)=O)NC(=O)[C@H](Cc2ccc(O)cc2)NC(=O)[C@H](C)NC1=O
LD50: 13.5 mg/kg
